Compound potency records, mixed from different reports. Data source: NIAID ChemDB in PubChem.

Common to all: growth or infection tests; organism: HIV-1; read by: p24; endpoint: EC50

Blank or dashed fields: not listed here. a–b is a range or a potency band. ECn is the concentration giving n% inhibition of infection, replication or growth. Conditions beyond the fields shown may differ between rows.

structure | strain | cells | changes | value
CCN1c2ncc(CCOc3ccc(-c4ccc(C(=O)O)cc4)cc3F)cc2C(=O)N(C)c2cccnc21 |  | C8166 | RT-K103N Y181C | >0.05 µM
CC(C)C1=C2[C@H]3CC[C@@H]4[C@@]5(C)CC[C@H](OC(=O)C6C[C@@H](C(=O)O)C6(C)C)C(C)(C)[C@@H]5CC[C@@]4(C)[C@]3(C)CC[C@@]2(NC(=O)C(C)(C)NC(=O)c2ccc(Cl)cc2)CC1=O | NL4-3 | MT-4 | V7A | <0.01 µM
CCN1c2ncc(CCOc3ccc(C(C)C(=O)O)c4ccccc34)cc2C(=O)N(C)c2cccnc21 |  | C8166 | RT-K103N Y181C | <0.1 µM
CC(C)CN(C[C@@H](O)[C@H](Cc1ccccc1)NC(=O)O[C@H]1CO[C@H]2OCC[C@H]21)S(=O)(=O)c1ccc2c(c1)OCO2 | NL4-3 (ATV1) | MT-4 | L23I/K43I/M46I/I50L/G51A/A71V | 0.0015 µM
CC(C)[C@H](NC(=O)OCc1ccccn1)C(=O)N[C@@H](Cc1ccccc1)[C@@H](O)C[C@H](Cc1ccccc1)NC(=O)OCc1cccnc1 | NL4-3 | MT-4 | PR-M46I L63P V82T I84V | <3 µM
CCN1c2ncc(CCOc3ccc(C(=O)O)c4c3CCN(S(=O)(=O)N(C)C)C4)cc2C(=O)N(C)c2cccnc21 |  | C8166 | RT-K103N Y181C | <0.1 µM
COc1ccc(S(=O)(=O)N(CC(O)CN2C(=O)OC[C@@H]2Cc2ccccc2)CC2CCCC2)cc1 | IIIB | CEM |  | <1 µM
CC(C)C1=C2[C@H]3CC[C@@H]4[C@@]5(C)CC[C@H](OC(=O)C6C[C@@H](C(=O)O)C6(C)C)C(C)(C)[C@@H]5CC[C@@]4(C)[C@]3(C)CC[C@@]2(NC(=O)C(C)(C)NC(=O)c2ccc(S(C)(=O)=O)cc2)CC1=O | NL4-3 | MT-4 | V7A | >0.05 µM
CN(C)CCN1CCn2c(nc(C(=O)NCc3ccc(F)cc3)c(O)c2=O)C1(C)C |  | MT-4 |  | <1 µM
Nc1nccc2c1ncn2[C@@H]1C=C(CO)[C@@H](O)[C@H]1O | 18199 unpaired | PBMC |  | 0.015 µM
CCN1c2ncc(CCOc3ccc(C(=O)O)c4c3CCN(C(=O)OC)C4)cc2C(=O)N(C)c2cccnc21 |  | C8166 | RT-V106A | 0.1–1 µM
Cc1ccc(C)n1-c1ccc(C(=O)O)c(O)c1 | 93IN101 R5 CLADE C | PBMC + MT-2 |  | 4.45 µM
CC1(C)c2nc(C(=O)NCc3ccc(F)cc3)c(O)c(=O)n2CCN1Cc1ccn[nH]1 |  | MT-4 |  | <1 µM
COc1ccc(S(=O)(=O)N(CC(C)C)C[C@@H](O)CCN(CC2CCCC2)S(=O)(=O)CC2COCO2)cc1 | IIIB | CEM |  | <1 µM
CN(C)CC1c2nc(C(=O)NCc3ccc(F)cc3)c(O)c(=O)n2CCN1Cc1ccn(C)n1 |  | MT-4 |  | 1–10 µM
CCN1c2ncc(CCOc3ccc(-c4ccc(CCC(=O)O)cc4)cc3C)cc2C(=O)N(C)c2cccnc21 | IIIB | C8166 |  | <0.01 µM
C/C=C/CSc1cc(NC(=S)c2ccsc2C)ccc1Cl | NL4-3 | CEM + CEM-SS | RT-V106I | 2.7 µM
CCN1c2ncc(CCOc3ccc(CC(=O)O)c4ccccc34)cc2C(=O)Nc2c(C)cc(Cl)nc21 |  | C8166 | RT-K103N Y181C | 0.1–1 µM
CCN1c2ncc(CCOc3ccc(-c4csc(N)n4)cc3C)cc2C(=O)N(C)c2cccnc21 |  | C8166 | RT-K103N Y181C | <0.01 µM
CSc1ccccc1CNC(=O)c1nc2n(c(=O)c1O)CN(C)C2(C)C |  | MT-4 |  | <50 µM
Nc1nccc2c1ncn2[C@@H]1O[C@H](CO)[C@@H](O)[C@H]1O | A018 PRE-AZT | PBMC |  | 0.226 µM
Cn1cnc(CN2CCn3c(nc(C(=O)NCc4ccc(F)cc4)c(O)c3=O)C2(C)C)n1 |  | MT-4 |  | <1 µM
CCN1c2ncc(CCOc3ccc(C(=O)Nc4ccc(CC(=O)O)cc4)cc3C)cc2C(=O)Nc2c(C)ccnc21 |  | C8166 | RT-K103N Y181C | >0.05 µM
CCN1c2ncc(CCOc3ccc(/C=C(\C)C(=O)O)c4ccccc34)cc2C(=O)N(C)c2ccc(F)nc21 |  | C8166 | RT-K103N Y181C | <0.1 µM
CCN1c2ncc(CCOc3ccc(-c4ccc[n+]([O-])c4C)cc3C)cc2C(=O)N(C)c2cccnc21 |  | C8166 | RT-K103N Y181C | <0.01 µM
Nc1cccc(S(=O)(=O)N(CC2CCCC2)C[C@@H](O)CN(CCc2ccccc2)C(=O)c2ccncc2)c1 | IIIB | CEM |  | <0.1 µM
Clc1cc(CN2CCCNCCNCCCNCC2)cc(Cl)n1 | NL4-3 X4 | HOS-CD4-CCR5 + HOS |  | 6.9 µM
COc1ccc(S(=O)(=O)N(CC(O)CN(CCc2ccccc2)C(=O)[C@@H](NC(=O)OCc2ccccc2)C(C)C)CC2CCCC2)cc1 | IIIB | CEM |  | <0.1 µM
CC(C)C1=C2[C@H]3CC[C@@H]4[C@@]5(C)CC[C@H](OC(=O)C6C[C@@H](C(=O)O)C6(C)C)C(C)(C)[C@@H]5CC[C@@]4(C)[C@]3(C)CC[C@@]2(NC(=O)C(C)(C)NC(=O)c2ccc(CN3CCS(=O)(=O)CC3)cc2)CC1=O | NL4-3 | MT-4 | V7A | >0.05 µM
CCN1c2ncc(CCOc3ccc(C(=O)O)c4c3CCN(C(=O)OC(C)(C)C)C4)cc2C(=O)N(C)c2cccnc21 | WT | C8166 |  | <0.1 µM
CC(C)C1=C2[C@H]3CC[C@@H]4[C@@]5(C)CC[C@H](OC(=O)C6C[C@@H](C(=O)O)C6(C)C)C(C)(C)[C@@H]5CC[C@@]4(C)[C@]3(C)CC[C@@]2(NC(=O)C(C)(C)NC(=O)c2ccc(N3CCOCC3)cc2)CC1=O | NL4-3 | MT-4 | V7A | <0.01 µM
CC(C)CN(CC(O)CNC1c2ccccc2CC1O)S(=O)(=O)c1ccccc1 | IIIB | CEM |  | <1 µM
O=C(NCc1ccc(F)cc1)c1nc2n(c(=O)c1O)CCN(Cc1ccccc1)CC2 |  | MT-4 |  | <50 µM
CCN1c2ncc(CCOc3ccc(C(=O)NCC(CC)(CC)C(=O)O)cc3C)cc2C(=O)N(C)c2cccnc21 | IIIB | C8166 |  | <0.01 µM
COc1ccc(S(=O)(=O)N(CC(C)C)CC(O)Cc2ccccc2C(=O)NC(C)(C)C)cc1 | IIIB | CEM |  | <1 µM

The first 3 rows once more:

structure,strain,cells,changes,value
CCN1c2ncc(CCOc3ccc(-c4ccc(C(=O)O)cc4)cc3F)cc2C(=O)N(C)c2cccnc21,,C8166,RT-K103N Y181C,>0.05 µM
CC(C)C1=C2[C@H]3CC[C@@H]4[C@@]5(C)CC[C@H](OC(=O)C6C[C@@H](C(=O)O)C6(C)C)C(C)(C)[C@@H]5CC[C@@]4(C)[C@]3(C)CC[C@@]2(NC(=O)C(C)(C)NC(=O)c2ccc(Cl)cc2)CC1=O,NL4-3,MT-4,V7A,<0.01 µM
CCN1c2ncc(CCOc3ccc(C(C)C(=O)O)c4ccccc34)cc2C(=O)N(C)c2cccnc21,,C8166,RT-K103N Y181C,<0.1 µM